Measured values published in PMC5603512, “Discovery, Semisynthesis, Antiparasitic and Cytotoxic Evaluation of 14-Membered Resorcylic Acid Lactones and Their Derivatives” (Scientific Reports, 2017).

Tests used:
Plasmodium falciparum = experiment: Antiplasmodial assay (PicoGreen growth inhibition in infected human erythrocytes); assay type: cell-based; conditions: for Plasmodium falciparum SI: Selectivity Index (CC50/IC50), CC50 on Vero cells
Experimental: Activity against the causative agent of malaria was performed by culturing human erythrocytes and infecting them with P. falciparum, as described by Trager and Jensen[36]. Briefly, the W2 (Chloroquine resistant) and 3D7 (Chloroquine sensitive) strains of P. falciparum were cultured in RPMI 1640 medium (Sigma-Aldrich, USA) supplemented with 10% human serum (from O+ blood) at a hematocrit of 2% erythrocytes (O+) at 37 °C in a gas mixture of 5% CO2, 5% O2, and 90% N2. Parasites were synchronized by a temperature cycling technique as described by Almanza et al.[37]

Leishmania donovani = experiment: Antileishmanial assay (PicoGreen); assay type: cell-based; conditions: Selectivity Index (CC50/IC50), CC50 on Vero cells
Experimental: The anti-leishmania activity was evaluated following the protocol described by Calderon et al.[39], using the fluorescent DNA intercalator PicoGreen (Invitrogen, USA). The species responsible for visceral leishmaniasis, L. donovani, was used for the assays.

| Compound | Plasmodium falciparum SI (Plasmodium falciparum) | Leishmania donovani SI (Leishmania donovani) | Improvement of antiplasmodial IC50 over compound 13 (Plasmodium falciparum; 11 versus 13) | Higher therapeutic ratio than compound 13 (Plasmodium falciparum; 12 versus 13, CC50/IC50) [fold] |
| --- | --- | --- | --- | --- |
| COc1cc(O)c2c(c1)/C=C/C[C@H](O)[C@@H]1OC(C)(C)O[C@H]1/C=C/C[C@H](C)OC2=O [Compound 1, cochliomycin A] | 3 |  |  |  |
| COc1cc(O)c2c(c1)/C=C/C[C@H](O)[C@H](O)C(=O)/C=C/C[C@H](C)OC2=O [Compound 6] | <1 | 2 |  |  |
| COc1cc(O)c2c(c1)/C=C/C[C@H](O)[C@H](O)C(=O)/C=C\C[C@H](C)OC2=O [Compound 7] | <1 | <1 |  |  |
| COc1cc2c(c(OC(C)=O)c1)C(=O)O[C@@H](C)C/C=C/[C@@H]1OC(C)(C)O[C@H]1[C@@H](OC(C)=O)C/C=C/2 [Compound 11] | > 180 and 184 | 37 | approximately 4 fold |  |
| COc1cc(O)c2c(c1)/C=C/C[C@H](OC(C)=O)[C@H](OC(C)=O)[C@@H](OC(C)=O)/C=C/C[C@H](C)OC2=O [Compound 12] | > 180 and 182 | 97 |  | 3 |
| COc1cc2c(c(OC(C)=O)c1)C(=O)O[C@@H](C)C/C=C/[C@H](OC(C)=O)[C@@H](OC(C)=O)[C@@H](OC(C)=O)C/C=C/2 [Compound 13] | 61 |  |  |  |
| COc1cc2c(c(OC(=O)c3ccco3)c1)C(=O)O[C@@H](C)C/C=C/[C@H](OC(=O)c1ccco1)[C@@H](OC(=O)c1ccco1)[C@@H](OC(=O)c1ccco1)C/C=C/2 [Compound 15] | 71 |  |  |  |
| COc1cc(O)c2c(c1)/C=C/C[C@@H]1OC(C)(C)O[C@@H]1C(=O)/C=C/C[C@H](C)OC2=O [Compound 20] |  | <1 |  |  |
| COc1cc2c(c(OC(C)=O)c1)C(=O)O[C@@H](C)C/C=C/C(=O)[C@@H](OC(C)=O)[C@@H](OC(C)=O)C/C=C/2 [Compound 21] |  | 2 |  |  |
| COc1cc2c(c(OC(=O)c3cccs3)c1)C(=O)O[C@@H](C)C/C=C/C(=O)[C@@H](OC(=O)c1cccs1)[C@@H](OC(=O)c1cccs1)C/C=C/2 [Compound 22] | <1 | 4 |  |  |
| COc1cc2c(c(OC(C)=O)c1)C(=O)O[C@@H](C)C/C=C/C(=O)[C@@H](OC(C)=O)[C@H](OC(C)=O)C/C=C/2 [Compound 24] |  | <1 |  |  |
| COc1cc(O)c2c(c1)C=CCC1OC(C)(C)OC1C(=O)C=CCC(C)OC2=O (stereo not drawn) [Compound 26] | <1 | <1 |  |  |
| COc1cc(O)c2c(c1)/C=C/C[C@H](OC(C)=O)[C@H](OC(C)=O)C(=O)/C=C\C[C@H](C)OC2=O [Compound 27] |  | <1 |  |  |

“And” between values parts separate entries of the source, which are not always exact repeats. Equal entries are not always repeated.
